Results from ChEMBL document CHEMBL5375988, “AcGlcAs: A Novel P53-Targeting Arsenical with Potent Cellular Uptake and Cancer Cell Selectivity” (J Med Chem, 2023).
The source made the active and inactive calls.

Protein sequences, listed by entry. Tags and fused reporters are not part of them. Lines headed by an entry give the natural chain unless they say otherwise; changes in a name come on top.
UniProt P60484: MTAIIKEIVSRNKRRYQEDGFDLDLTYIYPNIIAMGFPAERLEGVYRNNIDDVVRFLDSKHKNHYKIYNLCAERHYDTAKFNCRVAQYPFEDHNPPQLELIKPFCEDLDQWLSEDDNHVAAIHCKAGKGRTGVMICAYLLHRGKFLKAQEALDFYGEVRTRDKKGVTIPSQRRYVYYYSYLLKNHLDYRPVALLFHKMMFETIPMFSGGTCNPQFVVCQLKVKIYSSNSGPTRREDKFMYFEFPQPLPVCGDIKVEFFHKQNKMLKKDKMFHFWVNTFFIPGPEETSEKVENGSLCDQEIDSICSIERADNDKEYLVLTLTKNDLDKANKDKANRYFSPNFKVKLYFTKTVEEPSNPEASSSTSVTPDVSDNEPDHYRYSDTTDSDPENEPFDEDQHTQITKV

What was measured:
[1] = molecular target: Phosphatidylinositol 3,4,5-trisphosphate 3-phosphatase and dual-specificity protein phosphatase PTEN (Homo sapiens) (UniProt P60484); experiment: Binding affinity to PTEN (unknown origin) with exposed Cys124 assessed as increase in melting temperature at 1:15 ratio in HEPES at pH 7.5 by DSF analysis
[2] = molecular target: Replicase polyprotein 1ab (Severe acute respiratory syndrome coronavirus 2) (UniProt P0DTD1); experiment: Binding affinity to SARS-CoV-2 MPro with exposed Cys145 assessed as increase in melting temperature at 1:15 ratio in HEPES at pH 7.5 by DSF analysis
[3] = test system: GTPase KRas (Homo sapiens), P01116 [G12C]; experiment: Binding affinity to KRAS-G12C mutant (unknown origin) with exposed Cys12 assessed as increase in melting temperature at 1:15 ratio in HEPES at pH 7.5 by DSF analysis

Measured: Activity

I[As](I)I
inactive: all assays above
